Compound potency records, mixed from different reports. Data source: NIAID ChemDB in PubChem.

Common to all: growth or infection tests; organism: Mycobacterium bovis; read-out: MIC

Rows are shuffled and stem from different studies.

structure | strain or isolate | value
CCOC(=O)c1ccc(NC(=S)Nc2ccc3c(c2)C(C)(C)CC(C)(C)O3)cc1 | BCG | 5–10 µg/mL
CCCCCCCCOC1CCn2cc([N+](=O)[O-])nc2OC1 | rBCG-lux | 5 µg/mL
COc1ccc2c(c1NC(=S)NC(=O)c1ccc([N+](=O)[O-])cc1)C(C)(C)COC2(C)C | BCG | 20–40 µg/mL
CCCCOc1ccc(NC(=S)Nc2ccc(SCCC)cc2)cc1 | BCG | 1.1 µg/mL
O=[N+]([O-])c1cn2c(n1)OCCC2 | rBCG-lux | >50 µg/mL
CCCCCC(=O)N[C@@H]1COc2nc([N+](=O)[O-])cn2C1 | rBCG-lux | 2 µg/mL
CCc1cc(C(N)=S)ccn1 | BCG (PMV261::KASB) | 2 µg/mL
CCCCCCCCO[C@@H]1COc2nc([N+](=O)[O-])cn2C1 | rBCG-lux | 1 µg/mL
C=C/C(C)=C/[C@@]1(C)SC(=O)C(C)=C1O | BCG (PMV261) | 30 µg/mL
CCCCCCCCC(=O)N[C@@H]1COc2nc([N+](=O)[O-])cn2C1 | rBCG-lux | 6 µg/mL
CCCCCCCCOC1COc2nc([N+](=O)[O-])cn2C1 | rBCG-lux | 2 µg/mL
C[C@]1(COc2ccc(N3CCC(Oc4ccc(OC(F)(F)F)cc4)CC3)cc2)Cn2cc([N+](=O)[O-])nc2O1 | BCG/GLAXO | 0.012 µg/mL
CC(C)CCOc1ccc(NC(=S)Nc2ccc(OCCC(C)C)cc2)cc1 | BCG (PMV261::KASA) | 0.25 µg/mL
CC(C)CSc1ccc(NC(=S)Nc2ccc(SCC(C)C)cc2)cc1 | BCG | 0.06 µg/mL
CC1(C)CC(C)(C)c2cc(NC(=S)Nc3ccc([N+](=O)[O-])cc3)ccc2O1 | BCG | 20–40 µg/mL
NNC(=O)c1ccncc1 | BCG (PMV261::KASA) | 0.07 µg/mL
CCOC(=O)c1ccc(NC(=S)Nc2ccc3c(c2)C(C)(C)CC(C)(C)S3)cc1 | BCG | 20–40 µg/mL
Cc1cc(=O)n([C@@H]2O[C@H](C)C3CNC(=S)OC32)c(=O)[nH]1 | BCG | 100 µg/mL
CC1=CC(C)(C)N(C)c2ccc(NC(=S)Nc3ccc([N+](=O)[O-])cc3)cc21 | BCG | 20–40 µg/mL
O=C(Nc1ccc(Cl)cc1)N[C@@H]1COc2nc([N+](=O)[O-])cn2C1 | rBCG-lux | ≤0.008 µg/mL

Again, the opening 2 rows:

structure | strain or isolate | value
CCOC(=O)c1ccc(NC(=S)Nc2ccc3c(c2)C(C)(C)CC(C)(C)O3)cc1 | BCG | 5–10 µg/mL
CCCCCCCCOC1CCn2cc([N+](=O)[O-])nc2OC1 | rBCG-lux | 5 µg/mL

a–b is a range or a potency band.